Results deposited as PubChem BioAssay AID504811 (Drosophila RNAi Screening Center, 2011)

- Assay: 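Fly genes whose silencing alters Listeria monocytogenes infection in cultured cells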 (primary screen)
- System: Drosophila SL2 cells
- Reagents: long dsRNA against Drosophila genes
- Conditions: infection with GFP-expressing Listeria monocytogenes; dose and duration not given
- Measurement: 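Microscopy of GFP-labelled Listeria in infected cells, with each well visually classed as down, up or spots relative to controls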
- Active means: 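a dsRNA counts as a hit when bacterial fluorescence is plainly weaker, stronger or dotted in clusters relative to control wells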
- Calls: active = hit; inactive = not a hit
This is not the whole library: the list holds selected reagents. 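Only hits are listed, without non-hit dsRNAs or numeric scores; replicate 2 has entries for just two rows.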 The numbers tell different reagents against one gene apart. Names joined by + are all predicted targets of the reagent. No sequences are given here. The record does not give: the amount of reagent, the time to read-out.

Knock-down of CG12343 gave: infection phenotype, replicate 1 = less bacterial GFP than control wells (fewer infected cells or weaker signal per cell); active.
For TER94 (Transitional endoplasmic reticulum 94), the entry reads infection phenotype, replicate 1 = less bacterial GFP than control wells (fewer infected cells or weaker signal per cell); active.
Against Rpn7 (Regulatory particle non-ATPase 7), the entry reads infection phenotype, replicate 1 = less bacterial GFP than control wells (fewer infected cells or weaker signal per cell); active.
Depletion of Rbp (RIM-binding protein) gave: infection phenotype, replicate 1 = less bacterial GFP than control wells (fewer infected cells or weaker signal per cell); active.
After knock-down of CSN4 (COP9 signalosome subunit 4), the record shows infection phenotype, replicate 1 = less bacterial GFP than control wells (fewer infected cells or weaker signal per cell); active.
Knock-down of geminin resulted in: infection phenotype, replicate 1 = stronger bacterial GFP per infected cell than controls; active.
Against Ocrl (Oculocerebrorenal syndrome of Lowe), the entry reads infection phenotype, replicate 1 = less bacterial GFP than control wells (fewer infected cells or weaker signal per cell); active.
For RpL26 (Ribosomal protein L26) the deposit lists infection phenotype, replicate 1 = stronger bacterial GFP per infected cell than controls; active.
After knock-down of Rab21 the results were infection phenotype, replicate 1 = less bacterial GFP than control wells (fewer infected cells or weaker signal per cell); active.
For CG1542, the values are infection phenotype, replicate 1 = less bacterial GFP than control wells (fewer infected cells or weaker signal per cell); active.
With knock-down of nej (nejire) #1 the results were infection phenotype, replicate 1 = less bacterial GFP than control wells (fewer infected cells or weaker signal per cell); active.
Knock-down of nej (nejire) #2 resulted in: infection phenotype, replicate 1 = less bacterial GFP than control wells (fewer infected cells or weaker signal per cell); active.
RpL7 (Ribosomal protein L7) scored infection phenotype, replicate 1 = stronger bacterial GFP per infected cell than controls; active.
After knock-down of Cdk1 (Cyclin-dependent kinase 1) the results were infection phenotype, replicate 1 = stronger bacterial GFP per infected cell than controls; active.
Trpml + CG42638 scored infection phenotype, replicate 1 = less bacterial GFP than control wells (fewer infected cells or weaker signal per cell); active.
Knock-down of Hsp70Bb + Hsp70Ba + Hsp70Bc + 1 more #1 came out at: infection phenotype, replicate 1 = bacterial GFP seen as punctate clusters; pointing to bacteria failing to leave the vacuole; active.
Hsp70Bb + Hsp70Ba + Hsp70Bc + 1 more #2 gave infection phenotype, replicate 1 = bacterial GFP seen as punctate clusters; pointing to bacteria failing to leave the vacuole; active.
Against SmF (Small ribonucleoprotein particle protein SmF), the entry reads infection phenotype, replicate 1 = stronger bacterial GFP per infected cell than controls; active.
RpL10 (Ribosomal protein L10) gave infection phenotype, replicate 1 = stronger bacterial GFP per infected cell than controls; active.

In a second layout: 2 of the entries above
{"gene": "RpL26 (Ribosomal protein L26)", "dsRNA no.": 1, "infection phenotype, replicate 1": "stronger bacterial GFP per infected cell than controls", "activity call": "active"}
{"gene": "Rab21", "dsRNA no.": 1, "infection phenotype, replicate 1": "less bacterial GFP than control wells (fewer infected cells or weaker signal per cell)", "activity call": "active"}
